According to paper PMC10018608 (Signal Transduction and Targeted Therapy, 2023):

Test system: SARS-CoV-2 (BA.2)
Test: Plaque reduction assay in VeroE6-TMPRSS2
Type: cell-based
Details: Severe acute respiratory syndrome coronavirus 2

Work on COC[C@@H](NC(=O)C1CCCC(F)(F)C1)C(=O)N[C@H](Cc1ccccc1)C(=O)C(=O)NCc1nccs1 (stereo partly drawn) [SY110, N-((R)-1-(((R)-3,4-dioxo-1-phenyl-4-((thiazol-2-ylmethyl)amino)butan-2-yl)amino)-3-methoxy-1-oxopropan-2-yl)-3,3-difluorocyclohexane-1-carboxamide] yielded an EC50 of 384 nM.
